Assay results published in US20090042870A1, “Antimicrobial Composition” (priority 2005, published 2009).

Test: User opinion poll (smell, feel, preference)
Conditions: sum of scores Good = +1, No opinion = 0, Poor = −1; 15 participants

CC(C)O [propan-2-ol 60% (v/v), Propan-2-ol]
Feel score: −5
Smell score: −9
